Measurements reported in US10253236B2, “Environmental friendly well treatment fluids comprising an ester” (AMRIL AG, priority 2013, dated 2019).

Test system: microorganisms already present in the seawater
Experiment: Marine BODIS biodegradation test in natural seawater
Settings: for biodegraded over 28 days: natural seawater, 20° C.±1° C.

Compound | maximum biodegradation during the study (42 day study) | biodegraded over 28 days | biodegraded on day 42 (test extended for an additional 14 days, day 42, final day of study) | maximum biodegradation during the 70 day study (test extended for an additional 42 days (70 days))
CCCCCCC(CC=CCCCCCCCC(=O)O)OC(=O)CCCCCCCC(=O)O (centres unmarked) [Azelaic ricinoleate, azelaic ricinoleate] | 58% | 57% | 57% | –
C36 dimer acid [reference compound] | – | 12% | – | 22%
